PubChem BioAssay AID504761 | Drosophila RNAi Screening Center, 2011

Assay: 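Fly genes whose silencing reduces dengue virus type 2 infection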 (primary screen)
Cell system: D.Mel-2 cells from Drosophila
Knock-down reagent: long dsRNA against Drosophila genes
Challenge: infection with dengue virus type 2; dose and infection time not stated
Measurement: 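Per well on two replicate plates, imaging gave the percent of cells positive for viral envelope protein, ranked by infection, and a nuclear count of cells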
Direction: infection score: higher = more virus-infected cells; cell count: higher = more cells in the well
Hit rule: 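Low infection ranks in the two replicates (chance level up to 0.065) followed by a retest with a 1.5-fold or larger significant decrease, p below 0.05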
Meaning of the calls: active = confirmed: knock-down lowers infection; inactive = not picked or not confirmed
The deposit covers about 22,000 reagents; below is an unselected part of those that have a named target and a result. Of all reagents, 116 (0.52%) were called active. 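Calls depend on retest data that are not deposited; infection was ranked per plate without normalising between plates; the unit of the infection score is not given.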 Raw values are not corrected between plates. Reagents against one gene are numbered here. Names joined by + are all predicted targets of the reagent. Not all columns of the deposit are shown. Not stated in the record: the amount of reagent, the time to read-out.

| predicted target | reagent | infection score, replicate 1 | infection score, replicate 2 | cell count, replicate 1 | activity call |
| --- | --- | --- | --- | --- | --- |
| MICU3 | 1 | 3.54 | 7.79 | 5783 | inactive |
| MICU3 | 2 | 4.17 | 5.31 | 6761 | inactive |
| CG10909 | 1 | 2.01 | 5.74 | 6353 | inactive |
| MRP | 1 | 3.85 | 2.38 | 6461 | inactive |
| CG3740 | 1 | 12.9 | 6.66 | 4616 | inactive |
| CG15480 | 1 | 24.1 | 10.4 | 5249 | inactive |
| CG15480 | 2 | 8.41 | 10.3 | 5767 | inactive |
| CenB1A | 1 | 1.64 | 23.2 | 6417 | inactive |
| CenB1A | 2 | 14.8 | 21.9 | 3979 | inactive |
| Ppox | 1 | 10.5 | 10.2 | 4950 | inactive |
| CG7656 | 1 | 19.9 | 6.06 | 5066 | inactive |
| CG7920 | 1 | 7.41 | 7.39 | 6676 | inactive |
| CG7920 | 2 | 38.4 | 25.4 | 4238 | inactive |
| Tak1 | 1 | 2.83 | 4.46 | 6181 | inactive |
| Tak1 | 2 | 6.89 | 1.68 | 6289 | inactive |
| Tak1 | 3 | 4.86 | 1.74 | 6229 | inactive |
| CG14892 | 1 | 2.89 | 3.92 | 6398 | inactive |
| Fancl | 1 | 15.8 | 2.41 | 5947 | inactive |
| CG45263 | 1 | 3.44 | 10.8 | 6793 | inactive |
| CG45263 | 2 | 4.35 | 13.7 | 6781 | inactive |
| CG45263 | 3 | 16.1 | 11.5 | 5381 | inactive |
| CG16789 | 1 | 2.02 | 4.4 | 6879 | inactive |
| RpL37A | 1 | 3.75 | 7.46 | 6420 | inactive |
| RpL37A | 2 | 2.89 | 5.72 | 2322 | inactive |
| Sxl + CG14425 (retired record) | 1 | 2.1 | 26.9 | 6491 | inactive |
| Sxl + CG14425 (retired record) | 2 | 1.96 | 0.73 | 6422 | inactive |
| Sxl + CG14425 (retired record) | 3 | 4.83 | 5.16 | 5941 | inactive |
| Sxl + CG14425 (retired record) | 4 | 21.4 | 20.5 | 4748 | inactive |
| Ttc19 | 1 | – | 8.71 | 622 | inactive |
| CG44153 | 1 | 11.6 | 24.6 | 6908 | inactive |
| CG44153 | 2 | 1.06 | 1.45 | 6409 | inactive |
| CG44153 | 3 | 4.14 | 4.71 | 6715 | inactive |
| CG44153 | 4 | 4.49 | 2.97 | 6413 | inactive |
| CG13040 | 1 | 2.69 | 11.4 | 5873 | inactive |
| CG13040 | 2 | 16.9 | 10.4 | 4208 | inactive |

Copied from the entries so far (5 entries):
| predicted target | reagent | infection score, replicate 1 | infection score, replicate 2 | cell count, replicate 1 | activity call |
| --- | --- | --- | --- | --- | --- |
| CG3740 | 1 | 12.9 | 6.66 | 4616 | inactive |
| CG15480 | 1 | 24.1 | 10.4 | 5249 | inactive |
| CG15480 | 2 | 8.41 | 10.3 | 5767 | inactive |
| CenB1A | 1 | 1.64 | 23.2 | 6417 | inactive |
| CenB1A | 2 | 14.8 | 21.9 | 3979 | inactive |

The list goes on.
| predicted target | reagent | infection score, replicate 1 | infection score, replicate 2 | cell count, replicate 1 | activity call |
| --- | --- | --- | --- | --- | --- |
| CG3803 | 1 | 16.7 | 13.2 | 5139 | inactive |
| Nepl7 | 1 | 0.83 | 1.96 | 6504 | inactive |
| Nepl7 | 2 | 14.4 | 6.66 | 6406 | inactive |
| wat | 1 | 3.78 | 7.95 | 6063 | inactive |
| morgue | 1 | 6.56 | 26.2 | 6208 | inactive |
| CG13344 | 1 | 27.6 | 23 | 4055 | inactive |
| mRpL42 | 1 | 25.4 | 17.8 | 4477 | inactive |
| Swim | 1 | 12.2 | 20.2 | 5982 | inactive |
| CG13992 | 1 | 2.63 | 9.23 | 6276 | inactive |
| koi | 1 | 12.9 | 29.7 | 6222 | inactive |
| CG33489 | 1 | 3.59 | 5.37 | 5718 | inactive |
| CG33489 | 2 | 2.05 | 10.1 | 6104 | inactive |
| MFS18 | 1 | 5.01 | 15.7 | 6231 | inactive |
| CG11192 | 1 | 5.22 | 1.29 | 5780 | inactive |
| CG11192 | 2 | 4.92 | 8.96 | 6733 | inactive |
| Amnionless | 1 | 20.4 | 4.01 | 6312 | inactive |
| Gr93d | 1 | 1.92 | 10.3 | 6827 | inactive |
| Ser8 | 1 | 5.64 | 4.95 | 975 | inactive |
| Ser8 | 2 | 3.1 | 2.51 | 6516 | inactive |
| knk | 1 | 3.5 | 0.89 | 6486 | inactive |
| CG12560 | 1 | – | 6.47 | 584 | inactive |
| CG1792 | 1 | 8.47 | – | 6515 | inactive |
| CG1792 | 2 | 14.8 | 6.91 | 5599 | inactive |
